Here are results for one sequence from PMC5521740.

This data set concerns the target His-CRP (cAMP receptor protein) (Klebsiella pneumoniae NTUH-K2044) (UniProt A0ACD7U7W2). Put plainly: EMSA. Conditions: cAMP (20 mM); 5x binding buffer ([…], room temperature, 20 min ([…]) or 30 min ([…]; recombinant protein; residues 1-210; protein details: His; label: 5'-32P; probe letters rebuilt from the primers and the genome. (In general: A gel shift assay detects complexes by their altered migration in electrophoresis.)

Turning to “ATACCGGCAGCTGCGAGTAATTTTACGTTTTTCATGGTGTTTGTCCTTTTAACTTTTATGGTGGAAAGCATGTTTGCTTTCGATGGACTTATAATAAGTCTGCTAACTATAACGCGCGTGGCAAAAAGTGCGATTTAGATCACATTTTTATGGCGGTTTGATGGCGTAAACATGATCGTTTATCTATTTTTTAATTTAAAAACAATCAATTAATGATTTGCTTCTGAAAGGGGGTATCACATGGGCTGCCCTTGTTCAGGGAGAGGAATGCGCCTCATTCATGCTTTCACCATTCGTTGTGTGAATGGTTTGGTGCTGTTTTCACCACCGCAAAGGCAGATTCAGACTTATCGCGATGGCCTTCCGAGGGCTTTTTCTGCATGCTGTTGCGGTCACTTTCTCTCGCTCTGGCGTTAGGCTTGCTGCGCTGTAAACAACCACCCTCGCGTTTTCATCTATCAATGACTGTTTATTAATAGTCGATGGTTATCTGTTATATAACTTAATGAAACGTGAACAAATGTATATTTGTCGGCGAATAAATAGCATTCTTTGACGCCGATAGCACCAGCGAACTTATATTTTTAGGTTCGTTACCTGACGCCTTAAATATTGCGGCTCCCGGTCAGTCGAAGATTCTATTAGCAGTGGCATAAATCAGCATCG (double strand) [KP1_4563 promoter EMSA fragment]”, the binding result is “binds”.
